Source: US5051403A (priority 1989, dated 1991)

System: ischemic gerbils, spontaneous motor activity
Test: Ischemia-induced hyperactivity in gerbils (Automex activity monitors)

## CSCC[C@@H]1NC(=O)[C@H](CC(C)C)NC(=O)[C@H](CCCNC(=N)N)NC(=O)[C@H](CO)NC(=O)[C@@H]2CSSC[C@@H]3NC(=O)[C@H](CO)NC(=O)CNC(=O)[C@H]([C@@H](C)O)NC(=O)[C@H](CSSC[C@H](N)C(=O)N[C@@H](CCCCN)C(=O)NCC(=O)N[C@@H](CCCCN)C(=O)NCC(=O)N[C@@H](C)C(=O)N[C@@H](CCCCN)C(=O)N2)NC(=O)[C@H](CSSC[C@@H](C(N)=O)NC(=O)[C@H](CCCCN)NC(=O)CNC(=O)[C@H](CO)NC(=O)[C@H](CCCNC(=N)N)NC3=O)NC(=O)[C@H](CC(=O)O)NC(=O)[C@H](Cc2ccc(O)cc2)NC1=O [MVIIA]
occluded, treated animals, 1 day after occlusion
  spontaneous motor activity (in words): lower-than baseline values
occluded, treated animals, three days after occlusion
  spontaneous motor activity (in words): near-normal levels of activity
Peptide in the absence of ischemia
  spontaneous motor activity (in words): reduces activity
